Results deposited as PubChem BioAssay AID1259414 (Drosophila RNAi Screening Center, 2018)
Purpose: 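Fly genes that alter Wolbachia amount inside host cells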 (primary screen). Cell system: Drosophila JW18 cells infected with Wolbachia. Knock-down reagent: long dsRNA against Drosophila genes, 0.25 µg dsRNA per well of a 384-well plate. Timing: 5 days. Treatment: cells persistently infected with Wolbachia before knock-down; no added drug. Detection: 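Imaged fluorescence in situ signal for Wolbachia 23S rRNA per DAPI-counted host cell, given as a robust z-score within each plate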. Reading the numbers: Wolbachia per cell robust z: higher = more Wolbachia per host cell than the plate typical. Active means: 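Active if absolute robust z reaches 1.5 in two or more of three replicates, leaving out multi- or no-target dsRNAs, genes unexpressed in JW18 and A1 wells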.
In all, the deposit lists about 24,000 reagents; below is a random part of those that have a named target and a result. Of all reagents, about 1,210 (5%) were called active. 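Inactive calls also include excluded dsRNAs with several or no targets, genes unexpressed in JW18, and well A1, regardless of score.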 Entries without a mark were called inactive.

| target | dsRNA | Wolbachia per cell robust z, rep 1 | Wolbachia per cell robust z, rep 2 | Wolbachia per cell robust z, rep 3 |
| --- | --- | --- | --- | --- |
| Srg3 | DRSC08984 | 0.757 | 0.645 | 1.54 |
| Srg3 | DRSC10178 | -0.171 | -1.77 | -1.43 |
| LManIV | DRSC03222 | 0.891 | -0.281 | 0.41 |
| LManIV | DRSC27811 | -2.68 | 0.426 | -0.447 |
| Prp39 | DRSC15133 | 1.79 | 0.551 | -0.884 |
| Prp39 | DRSC25186 | -1.54 | -0.718 | -1.05 |
| Jon65Aiii | DRSC10649 | -0.358 | 1.29 | 0.274 |
| Jon65Aiii | DRSC25428 | -0.249 | 0.182 | 0.875 |
| ebd1 | DRSC08565 | 0.479 | 0.277 | 0.735 |
| ebd1 | DRSC29439 | -1.56 (active) | -7.44 | -1.45 |
| CG8728 | DRSC07251 | 0.321 | -0.276 | 0.316 |
| Kpc2 | DRSC07635 | -2.8 | -0.685 | -0.431 |
| CG14151 | DRSC10153 | -0.788 | 0.604 | 0.933 |
| Cp19 | DRSC11121 | -0.94 | -0.273 | 0.943 |
| Cp19 | DRSC28639 | -0.229 | 0.305 | 0.408 |
| CG7342 | DRSC16230 | 2.05 (active) | 2.01 | 0.426 |
| RpL34a | DRSC15964 | -3.9 | 0.778 | -0.0939 |
| CG5880 | DRSC15906 | -1.49 | 0.0527 | 0.359 |
| mRRF2 | DRSC16143 | -5.45 (active) | 0.102 | -5.27 |
| CG8565 | DRSC20112 | 0.822 | 1.14 | 0.288 |
| CG17104 | DRSC02573 | -0.461 | 0.21 | 0.313 |
| CG17104 | DRSC29692 | 0.331 | 0.509 | 1.82 |
| sw | DRSC20388 | -3.91 | -0.321 | 0.508 |
| Or35a | DRSC03389 | 0.749 | 0.792 | 0.426 |
| mRpS10 | DRSC15557 | -0.75 | 0.908 | -0.482 |
| srp | DRSC23166 | -0.626 | -0.765 | -0.19 |
| srp | DRSC29336 | -0.255 | -1.23 | -4.93 |
| CG8929 | DRSC07298 | 1.05 | 1.2 | -0.386 |
| CG8929 | DRSC22847 | 0.471 | 1.03 | 1.03 |
| CG5568 | DRSC10518 | -1.66 | -0.46 | -0.0903 |
| CG5568 | DRSC22816 | 1.03 | 0.0557 | 0.573 |
| CG5568 | DRSC24887 | -0.106 | 0.824 | -0.0486 |
| Ibf2 | DRSC16551 | -0.801 | 1.89 | 0.77 |
| bond | DRSC16135 | -1.79 | -0.106 | -0.0405 |
| bond | DRSC23724 | 2.48 | -0.84 | 1.33 |
| Spn28F | DRSC03615 | -1.49 | 0.547 | -0.803 |
| Spn28F | DRSC25759 | -0.832 | 1.52 | -1.28 |
| Hat1 | DRSC12298 | -0.371 | -0.818 | -3.56 |
| Hat1 | DRSC29235 | 0.862 | 1.09 | 0.897 |
| Dis3 | DRSC16034 | 1.25 (active) | 2.75 | 3.09 |
| CG42733 | DRSC25375 | -2.02 | 0.499 | -0.452 |
| Ir7b | DRSC18009 | -4.79 | 0.589 | -2.95 |
| Tep1 | DRSC03450 | -0.731 | 1.07 | -0.175 |
| Tep1 | DRSC26163 | -2.29 | -1.18 | -1.5 |
| sced | DRSC04990 | 0.0056 | 1.06 | 1.41 |
| lncRNA:CR30009 | DRSC22952 | 0.176 | 0.0176 | 0.548 |
| lncRNA:CR30009 | DRSC29817 | -0.0421 | -0.457 | 0.178 |
| tacc | DRSC12019 | -0.6 | -0.99 | -7.56 |
| tacc | DRSC12388 | 1.16 | 0.754 | -0.092 |
| tacc | DRSC29052 | 0.892 | 0.585 | -0.73 |
| tacc | DRSC40809 | 0.698 | 0.378 | -0.761 |
| CG34230 | DRSC38877 | -0.458 | -2.65 | -0.49 |
| CG3603 | DRSC18317 | 0.178 | 1.15 | -1.66 |
| CG13018 | DRSC06274 | 1.05 | 1.42 | -2.54 |
| CG13066 | DRSC09949 | -5.83 | -3.47 | -2.07 |
| CG13066 | DRSC41499 | -1.62 | -2.2 | 0.719 |
| Ndf | DRSC02775 | 0.637 | -1.07 | -0.165 |
| Rpn1 | DRSC11274 | 1.15 | 1.6 | 1.08 |
| Strip | DRSC08194 | 1.67 | 1.32 | 1.47 |
| Strip | DRSC29471 | 2.93 (active) | 2.17 | 2.16 |
| CG14464 | DRSC07760 | 0.837 | -1.96 | 0.711 |
| nopo | DRSC06918 | -1.16 | -1.15 | -2.65 |
| roq | DRSC10227 | -2.5 (active) | -1.64 | -1.91 |
| Tbc1d22 | DRSC15867 | -0.542 | -1.01 | 0.127 |
| CG34136 | DRSC38614 | 0.209 | 0.837 | -0.256 |
| cmpy | DRSC11701 | -0.912 | 0.484 | -0.562 |
| cmpy | DRSC41310 | -0.954 | 0.965 | 0.556 |
| Klp10A | DRSC19601 | 0.0836 | -5.54 | -1.19 |
| Klp10A | DRSC24185 | -0.0735 | 1.79 | 0.981 |

Records above whose target name begins with P or p:
| target | dsRNA | Wolbachia per cell robust z, rep 1 | Wolbachia per cell robust z, rep 2 | Wolbachia per cell robust z, rep 3 |
| --- | --- | --- | --- | --- |
| Prp39 | DRSC15133 | 1.79 | 0.551 | -0.884 |
| Prp39 | DRSC25186 | -1.54 | -0.718 | -1.05 |
